PMC3676400, “3-Oxoacyl-ACP Reductase from Schistosoma japonicum: Integrated In Silico-In Vitro Strategy for Discovering Antischistosomal Lead Compounds” (PLoS ONE, 2013)
≈ marks a conversion by molar mass, not a printed value.

By UniProt entry, the sequences of proteins in these tests, tags left out. Residues count along the entry.
UniProt Q5DB51, 1-265: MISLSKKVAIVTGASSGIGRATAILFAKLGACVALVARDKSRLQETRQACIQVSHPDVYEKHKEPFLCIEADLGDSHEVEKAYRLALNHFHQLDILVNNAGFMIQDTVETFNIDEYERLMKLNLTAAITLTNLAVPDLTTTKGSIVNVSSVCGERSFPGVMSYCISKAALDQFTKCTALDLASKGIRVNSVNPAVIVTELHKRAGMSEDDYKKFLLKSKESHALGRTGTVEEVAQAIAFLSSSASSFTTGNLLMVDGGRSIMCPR

Key:
rSjOAR [1] = target: T1, rSjOAR (Schistosoma japonicum, UniProt Q5DB51); experiment: BIAcore assay of binding to immobilized rSjOAR; conditions: for KA (association constant): five concentrations 0.5-10 µM; for Kd: read-out: KD (dissociation constant), five concentrations 0.5-10 µM
Experimental: The binding capacities of small compounds identified by the virtual screen with rSjOAR were assessed using a BIAcore 3000 instrument (BIAcore AB, Uppsala, Sweden). The recombinant His-tag fusion protein SjOAR was immobilized onto an NTA chip. Compounds were injected at a concentration of 10 µM and a flow rate of 40 µl/min in HBS buffer (0.01 M HEPES, 0.15 M NaCl, 3.0 mM EDTA, 0.005% Tween 20, pH 7.4) containing 1‰ DMSO (Dimethyl sulfoxide). Electrical alterations on the sensor chip were monitored as a resonance signal by using the program supplied by the manufacturer. To further obtain kinetic parameters, a series of compound concentrations (0.5 µM, 1 µM, 2 µM, 5 µM and 10 µM) were measured. Data were analyzed by using the software with which the instrument was equipped.

adult worms = experiment: Inhibition studies on cultured adult worms; conditions: for speed of antischistosomal activity: 40 µg/ml or 80 µg/ml, 2 h or 24 h; for mortality rate: primary screening, 25 µg/ml; for LD50 (median lethal dose): secondary screening, at 72 hours; for reversibility of effects on worms: data not shown
Experimental: (§1) Mice infected with cercariae (400–600 cercariae per mice for juvenile worms and 80–100 cercariae per mice for adult worms) were scarified at 14 days and 35 days post-infection for juvenile worms and adult worms, respectively. The freshly perfused worms were washed with saline and then cultured in RPMI 1640 medium supplemented with 300 µg/ml penicillin, 300 µg/ml streptomycin, 0.25 µg/ml amphotericin and 10% fetal bovine serum. Four of adult worms with good viability were transferred into each well of a 24-well Falcon plate containing 2 ml of the above culture medium. Compounds dissolved in DMSO were added to different final concentrations (for initial screening three concentrations 5 µg/ml, 25 µg/ml and 50 µg/ml were evaluated while for the second screening, five concentrations 5 µg/ml, 10 µg/ml, 20 µg/ml, 40 µg/ml and 80 µg/ml were used). Control worms were treated with an equal volume of carrier DMSO or RPMI 1640 medium, and worms treated with PZQ were also evaluated as a positive control. For each experimental condition, 12 worms evenly distributed in 3 wells were tested.
(§2) The worms were cultured at 37°C in an incubator with 5% CO2. Worm viability, morphological changes and mortality were monitored under an inverted microscope at 2 h, 16 h, 24 h, 48 h and 72 h post-treatment. Parasite death was defined as non-detectable activity for 2 minutes plus morphological and tegumental alterations. Worms with typical lesions were photographed and stored in 2.5% glutaraldehyde in PBS for electron microscope analysis. The median lethal dose (LD50) for each active compound was calculated by SPSS 18.0 software, with a confidence interval of 95%. The inhibition study was initially performed with adult worms, and then the compounds identified as active were also tested on juvenile worms with the similar methods described above.
Schistosome samples were fixed in 2.5% glutaraldehyde in PBS at 4°C for 2 h and then washed with PBS three times. The samples were further fixed in 1% Osmium tetroxide buffer. After ethanol dehydration and critical point drying, samples were mounted on microscope stubs, followed by gold sputtering for 3 min in IB-3 ion-sputtering instrument (Hitachi, Japan). A S-520 SEM (Hitachi, Japan) was utilized with an accelerating voltage of 30 kV for the observation.

juvenile worms = experiment: Inhibition studies on cultured juvenile worms; conditions: for mortality: 40 µg, worms 14 days post infection
Experimental: as §1, §2

rSjOAR [2] = target: T1, rSjOAR; experiment: Effect of active compounds on rSjOAR enzymatic activity

c1ccc2c(CN3CCN(Cc4ccc5c(c4)OCO5)CC3)c[nH]c2c1
Rmax (maximum binding capacity) (rSjOAR [1]): 50.3 | KA (association constant) (rSjOAR [1]): 124000 M⁻¹ | Kd (rSjOAR [1]): 8.07 µM | morphological changes, optical microscopy (adult worms; 10 µg/ml, 48 h): extensive blebs | tegument alterations, scanning electron microscopy (adult worms; 10 µg/ml, 48 h): blebs on the tegument were so severe that they fused together | speed of antischistosomal activity (adult worms): significant activity in a relatively short time | mortality rate (adult worms): significant mortality rate | LD50 (median lethal dose) (adult worms): 19.7 ± 8.7 µg/mL | LD50 (median lethal dose) (adult worms; corresponding molar value): 56.4 ± 24.9 µM

Cc1c(C(=O)NCc2ccc(N3CCC(C)CC3)cc2)cnn1-c1ccc(Cl)cc1
Rmax (maximum binding capacity) (rSjOAR [1]): 131.0 | KA (association constant) (rSjOAR [1]): 27300 M⁻¹ | Kd (rSjOAR [1]): 36.6 µM | morphological changes, optical microscopy (adult worms; 10 µg/ml, 48 h): extensive blebs | tegument alterations, scanning electron microscopy (adult worms; 10 µg/ml, 48 h): blebs on the tegument were so severe that they fused together | adult worm mortality (adult worms; 40 µg/ml): 75% | speed of antischistosomal activity (adult worms): slower | reversibility of effects on worms (adult worms): irreversible | mortality rate (adult worms): significant mortality rate | LD50 (median lethal dose) (adult worms): 18.0 ± 7.6 µg/mL | LD50 (median lethal dose) (adult worms; corresponding molar value): 42.5 ± 17.9 µM | morphology of juvenile worms (juvenile worms): varying degrees of blebs | mortality (juvenile worms; in 72 h): 100% | reduction of rSjOAR activity (rSjOAR [2]; 80 µg/ml): 45.71%

O=[N+]([O-])c1cc(Cl)ccc1N=Nc1cc(F)cc(F)c1O
Rmax (maximum binding capacity) (rSjOAR [1]): 40.7 | KA (association constant) (rSjOAR [1]): 5.41e+07 M⁻¹ | Kd (rSjOAR [1]): 0.0185 µM | adult worm mortality (adult worms; 40 µg/ml): 100% | speed of antischistosomal activity (adult worms): significant activity in a relatively short time | morphological changes, optical microscopy (adult worms; 40 µg/ml, 24 h): lots of thorns were distributed on the tegument | tegument alterations, scanning electron microscopy (adult worms; 40 µg/ml, 24 h): Serious tegument peeling | reversibility of effects on worms (adult worms): irreversible | mortality rate (adult worms): significant mortality rate | LD50 (median lethal dose) (adult worms): 18.5 ± 6.1 µg/mL | LD50 (median lethal dose) (adult worms; corresponding molar value): 59.0 ± 19.4 µM | morphology of juvenile worms (juvenile worms): became short and black | mortality (juvenile worms; in 48 h): 100% | reduction of rSjOAR activity (rSjOAR [2]; 25 µg/ml, compared with carrier-treated group): 73% | IC50 (rSjOAR [2]; in the first 15 min): 21.79 ± 1.33 µg/mL (≈ 69.5 µM)
